Strings that start with PEPTIDE1 are HELM notation: dots part the residues, brackets hold end groups and non-standard residues.
Assay: general procedure: Fmoc solid-phase peptide synthesis; TentaGel R or S RAM resin (Rapp Polymer); PyBOP
Conditions: whole synthesis, mass spectrometry coupled with analytical HPLC (LC/MSD Trap series 1100, Agilent; Phenomenex Gemini-NX column), chloride (counter-ion changed from TFA using acetonitrile with 0.05% HCl)

Substance: PEPTIDE1{[ac].R.Q.Y.S.V.T.D.A.L.E.D.V.S.T.S.P.Q.S.T.E.E.V.V.Q.S.F.L.I.S.Q.[am]}$$$$V2.0
- final LC-MS purity: 80% purity

Source: patent publication US20170298100A1 (Cascadia Life Sciences LLC, priority 2014, published 2017)
